The source of these data is PMC7493962, “Structure-based inhibitors targeting the alpha-helical domain of the Spiroplasma melliferum histone-like HU protein” (Scientific Reports, 2020).

Common to all, as to assay: EMSA
Conditions in all cases: EMSA: 20 mM Tris-HCl pH 8.0, 150 mM NaCl, 7% glycerol, 10 nM DNA, 10 min, temperature not stated; NMR: 50 mM sodium phosphate pH 7.2, 0.1 mM NaN3, 30 C
(In general: A gel shift assay detects complexes by their altered migration in electrophoresis.)

For series [1], the system named is HUSpm_R57A (Spiroplasma melliferum), PDB:5L8Z_1.
Series [2] has as its system HUSpm_K80A (Spiroplasma melliferum), PDB:5L8Z_1.
Series [3] concerns HUSpm_K88A (Spiroplasma melliferum), PDB:5L8Z_1.

As a reminder, the Kd is the concentration at which binding is half-saturated. Consider “AGTCTAGAGTGCAGTTGAGTCCTTGCTACGACGGATCCCTTAGGTCAG / CTGACCTAAGGGATCCGTCGTAGCAAGAGACTCAACTGCACTCTAGACT [A1 bulge (A1)]”, for which the Kd was determined as 175 nM in series [1], 41 nM in series [2] and 83 nM in series [3].

For the sequence “AGTCTAGAGTGCAGTTGAGTCCTTGCTACGACGGATCCCTTAGGTCAG / AAGGACTCAACTGCACTCTAGACT / CTGACCTAAGGGATCCGTCGTAG [Nick (N)]”, the Kd came out at 398 nM in series [1], 69 nM in series [2] and 220 nM in series [3].

Regarding “AGTCTAGAGTGCAAGTTGAGTCCTT / AAGGACTCAACTGCACTCTAGACT [DS24a (24a)]”, the Kd in series [1] came to 230 nM; in series [3], 84 nM.

With “AGTCTAGAGTGCAGTTGAGTCCTTGCTACGACGGATCCCTTAGGTCAG (double strand) [DS48 (48)]”, the Kd in series [1] was 788 nM; in series [2], 163 nM; in series [3], 390 nM.

On to “AGTCTAGAGTGCAGTTGAGTCCTTGCTACGACGGATCCCTTAGGTCAG / CTGACCTAAGGGATCCGTCGTAGCAAGAAAAAAAGACTCAACTGCACTCTAGACT [A7 bulge (A7)]”, for which the results for the Kd in series [1], in series [2] and in series [3] were 121 nM, 13 nM and 51 nM, respectively.
